Pooled drug test results. Numbers come from NIAID ChemDB, via PubChem.

Common to all: enzyme or target tests; species: Pneumocystis carinii

Blank or dashed fields: not listed here. Percent inhibition refers to the dose given; in toxicity tests it is the harm to the cells. ICn: concentration for n% inhibition. Rows are shuffled and stem from different studies.

smiles | measure | dose | target | value
Nc1nc2occ(-c3cccc(Cl)c3)c2c(=O)[nH]1 | IC50 | - | DHFR | 24 µM
Nc1nc(N)c2c(CNc3cc(Cl)c(-n4cccc4)c(Cl)c3)csc2n1 | inhibition | 10 µM | DHFR | <30%
CCN(CC)CC#CCOc1ccc2ccc(=O)oc2c1 | IC50 | - | Oxidosqualene cyclase | 1.85 µM
c1cc2[nH]c3ccc(C4=NCCN4)cc3c2cc1C1=NCCN1 | IC50 | - | Ergosterol | 107 µM
COc1ccc(N2C(N)=NC(N)=NC2(C)C)c(OC)c1OC | IC50 | - | DHFR | 20.4 µM
O=CNc1ccc(S(=O)(=O)c2ccc(NC=O)cc2)cc1 | IC50 | - | DHPS | 621.8 µM
COc1cc(C2c3c(nc(N)[nH]c3=O)OC2[N+](=O)[O-])cc(OC)c1OC | IC50 | - | DHFR | 130 µM
COc1cc(N(C)Cc2csc3nc(N)nc(N)c23)cc(OC)c1OC | inhibition | 10 µM | DHFR | <30%
Nc1nc(N)c2c(Cl)c(Cl)ccc2n1 | IC50 | - | DHFR | 9.7 µM
CN(C)CCCCCCCCCCOc1ccc(/C=C/C(=O)N(C)C)c(O)c1 | IC50 | - | Oxidosqualene cyclase | 0.03 µM
CCOC(=O)c1ccc(NS(=O)(=O)c2ccc(NC(C)=O)cc2)cc1 | IC50 | - | DHPS | 238 µM
O=C(c1ccc(Cl)cc1)c1ccc(OCCN2CCN(CCO)CC2)cc1 | inhibition | 2 µM | Oxidosqualene cyclase | 80%
CC(=O)NS(=O)(=O)c1ccc(NC(=O)c2ccccc2C(=O)O)cc1 | IC50 | - | DHPS | 109 µM
N=C(N)c1ccc2[nH]c3ccc(C(=N)N)cc3c2c1 | IC50 | - | Ergosterol | >500 µM
C[N+](C)([O-])CCCCCCCCCCOc1ccc2ccc(=O)oc2c1 | IC50 | - | Oxidosqualene cyclase | 0.16 µM
COc1cc(OC)cc(N2C(N)=NC(N)=NC2(C)C)c1 | IC50 | - | DHFR | 12.9 µM
NC(=NC1CCCC1)c1ccc(-c2ccc(-c3ccc(C(N)=NC4CCCC4)cc3)o2)cc1 | IC50 | - | Ergosterol | 38 µM
Nc1nc(N)c2nc(CC3CCCCC3)c(CC3CCCCC3)nc2n1 | IC50 | - | DHFR | 2.6 µM
CC(C)CN=C(N)c1ccc(-c2ccc(-c3ccc(C(N)=NCC(C)C)cc3)o2)cc1 | IC50 | - | Ergosterol | 65 µM
CCCCc1ccc(Cc2nc3nc(N)nc(N)c3nc2Cc2ccc(CCCC)cc2)cc1 | IC50 | - | DHFR | 3.9 µM
CC(=O)NS(=O)(=O)c1ccc(NC(=O)c2ccco2)cc1 | IC50 | - | DHPS | 1309 µM
CC(=O)Nc1ccc(C(=O)O)cc1 | inhibition | 100 µM | DHPS | 44.8%
Nc1nc(N)c2c(F)cccc2n1 | IC50 | - | DHFR | 0.41 µM
Nc1ccc(S(=O)(=O)N[n+]2ccccc2)cc1 | IC50 | - | DHPS | 498.5 µM
COc1cc(-c2coc3nc(N)[nH]c(=O)c23)cc(OC)c1OC | IC50 | - | DHFR | >300 µM
C=CC[N+](C)([O-])CC#CCCCCOc1ccc2ccc(=O)oc2c1 | IC50 | - | Oxidosqualene cyclase | >10 µM
Nc1nc(N)c2cc(I)ccc2n1 | IC50 | - | DHFR | 1.6 µM
O=c1ccc2ccc(OCCCCCCN3CCCCC3)cc2o1 | IC50 | - | Oxidosqualene cyclase | 2.48 µM
CC(C)N=C(N)c1ccc2[nH]c3ccc(C(N)=NC(C)C)cc3c2c1 | IC50 | - | Ergosterol | >500 µM
Nc1nc2occ(-c3ccccc3)c2c(=O)[nH]1 | IC50 | - | DHFR | 32 µM
c1cc2c(cc1C1=NCCN1)[nH]c1cc(C3=NCCN3)ccc12 | IC50 | - | Ergosterol | 51 µM
Nc1nc(N)c2nc(Cc3cccc(C(F)(F)F)c3)c(Cc3cccc(C(F)(F)F)c3)nc2n1 | IC50 | - | DHFR | 26 µM
C=CCN(C)CCCCCCOc1cc2oc(=O)ccc2cc1Br | IC50 | - | Oxidosqualene cyclase | 0.3 µM

A second listing of 2 rows from above:

smiles,measure,dose,target,value
Nc1nc(N)c2cc(I)ccc2n1,IC50,-,DHFR,1.6 µM
C=CC[N+](C)([O-])CC#CCCCCOc1ccc2ccc(=O)oc2c1,IC50,-,Oxidosqualene cyclase,>10 µM